Compound potency records, mixed from different reports. Data source: NIAID ChemDB in PubChem.

Shared fields: tests in culture; organism: Rhinovirus

Blank or dashed fields: not listed here.

SMILES	read-out	strain or isolate	read by	cells	value
Cn1c2ccccc2c2nnc(N3CCOCC3)nc21	EC50	HGP	plaque count	WI-38	220 µg/mL
Cc1c(-c2ccccc2)n(-c2ccc(F)cc2)c2ccc(C(C)C)cc2c1=O	EC50	29/5582	cytopathic effect	HELA-OHIO	0.11 µg/mL
O=C(CCCCOc1c(Cl)cc(C2=NCCO2)cc1Cl)c1ccc(Cl)cc1	EC50	Serotype 14	cytopathic effect	HeLa	>35 µM
CS(=O)(=O)c1ccc(NCc2ccc(C(F)(F)F)cc2)nc1	EC50	TYPE 1A	cytopathic effect	HeLa	>10 µg/mL
CS(=O)(=O)c1ccc(Oc2ccc(C(=O)c3ccccc3)cc2)nc1	EC50	TYPE 10	cytopathic effect	HeLa	10 µg/mL
CSc1nsc(-c2ccc(OCCCOc3ccccc3)cc2)c1C#N	EC50	Serotype 72 (group A)	cytopathic effect	HELA-OHIO	>20 µM
CN(C)c1nc(Cl)nc2c1ncn2Cc1cccc([N+](=O)[O-])c1	EC50	Serotype 1B	plaque count	M-HELA	>50 µM
CCn1c2c(c(=O)c3cc(C(C)C)ccc31)Cc1ccccc1-2	EC50	13/353	cytopathic effect	HELA-OHIO	0.17 µg/mL
N#Cc1cc([N+](=O)[O-])ccc1Oc1ccc(Cl)c(Cl)c1	EC50	TYPE 2	cytopathic effect	HeLa	0.1 µg/mL
CCOC(=O)c1ccc(OCCCCOc2ccc(-c3snc(SC)c3C#N)cc2)cc1	EC50	Serotype 63 (group B)	cytopathic effect	HELA-OHIO	>2 µM
CS(=O)(=O)c1ccc(Cc2ccc(Cl)c(Cl)c2)nc1	EC50	TYPE 13	cytopathic effect	HeLa	>10 µg/mL
Cc1nc(CC(O)CO)c2nc[nH]c(=O)n12	EC50	TYPE 9	cytopathic effect	WI-38	≥300 µg/mL
S=c1nc2c(n[nH]1)c1ccccc1n2CCc1ccccc1	EC50	1059	plaque count	WI-38	10 µg/mL
C=CCc1ncn2c(=O)[nH]c(NC(C)=O)nc12	EC50	TYPE 9	cytopathic effect	WI-38	>200 µg/mL
Clc1ccc(C2COc3ccc(Cl)cc3C2)cc1	EC50	Serotype 1B	plaque count	M-HELA	0.162 µM
N#Cc1ccc(OCCCCC(=O)c2ccc(Cl)cc2)cc1	EC50	Serotype 14	cytopathic effect	HeLa	>319 µM
Cn1c2ccccc2c2nnc(NCCCCCO)nc21	EC50	HGP	plaque count	WI-38	45 µg/mL
Cc1cc(CCCCCOc2cc(Cl)c(-c3nnc(C)o3)c(Cl)c2)on1	MIC80	Serotype 25	-	-	0.7 µg/mL
Cc1c(-c2ccccc2)n(-c2cccc(F)c2)c2ccc(C(C)C)cc2c1=O	EC50	1A/E28	cytopathic effect	HELA-OHIO	1 µg/mL
CC1CC(N)=NC1C(=O)NCCC(=N)N	MIC	Serotype 2	-	-	>100 µg/mL
CSc1nsc(-c2ccc(OCCOc3ccccc3)cc2)c1C#N	EC50	Serotype 41 (group B)	cytopathic effect	HELA-OHIO	>20 µM
CCOC(=O)c1ccc(OCCCCC(=O)c2ccc(Cl)c(Cl)c2)cc1	EC50	Serotype 14	cytopathic effect	HeLa	>253 µM
CCOC(=O)/C=C/[C@H](C[C@@H]1CCNC1=O)NC(=O)COc1ccc(Cl)c(Cl)c1	EC50	Serotype 14	-	H1-HELA	6.1 µM
Cc1ccc(C(=O)CCCCOc2ccc(C3=NCCO3)cc2)cc1C	EC50	Serotype 2	cytopathic effect	HeLa	>285 µM
Cc1cc(CCCCCOc2cc(Cl)c(-c3nnco3)c(Cl)c2)on1	MIC80	Serotype 67	-	-	0.64 µg/mL
N#CCCNC(=O)C1CCC(=O)N1	MIC	Serotype 2	-	-	>100 µg/mL
CSc1nsc(-c2ccc(OCCCc3ccccc3)cc2)c1C#N	EC50	Serotype 15 (group B)	cytopathic effect	HELA-OHIO	>20 µM
CN(C)c1ncnc2c1ncn2Cc1cccc(C#N)c1	EC50	Serotype 1B	plaque count	M-HELA	>50 µM
CCOC(=O)c1ccc(OCCCCC(=O)c2ccc(OC)cc2)cc1	MIC80	serotype 1A 1B 2 6 14 15 21 22 25 29 30 41 42 45 59 63 67 70 72 86 89	-	-	>281 µM
CCOc1cc(OC)ccc1-c1cc(N(CC)CC)no1	EC50	Serotype 86 (group A)	cytopathic effect	HeLa	>90 µM
CN(C)c1nc(Cl)nc2c1ncn2Cc1cccc(OCc2ccccc2)c1	EC50	Serotype 1B	plaque count	M-HELA	>50 µM
CC(CC#N)NC(=O)C1CCC(N)=N1	MIC	Serotype 2	-	-	200 µg/mL
CCOC(=O)c1ccc(OCCCCC(=O)c2ccccc2)cc1	EC50	Serotype 14	cytopathic effect	HeLa	11 µM
CCN(CC)c1cc(-c2ccc(OC)cc2OC)on1	EC50	Serotype 70 (group A)	cytopathic effect	HeLa	>362 µM
CCOC(=O)/C=C/[C@H](CCC(N)=O)NC(=O)NC(CC(C)C)C(=O)OCC	EC50	Serotype 14	-	H1-HELA	19.6 µM
N=CCCCCNC(=O)C1CCC(N)=N1	MIC	Serotype 2	-	-	>100 µg/mL
COc1ccc(C(=O)CCCCOc2c(Cl)cc(C3=NCCO3)cc2Cl)cc1	MIC80	serotype 1A 1B 2 6 14 15 21 22 25 29 30 41 42 45 59 63 67 70 72 86 89	-	-	>237 µM
Cc1cc(CCCOc2c(Cl)cc(C3=NCCO3)cc2Cl)on1	EC50	Serotype 16	plaque count	-	0.15 µg/mL
CCOC(=O)c1ccc(OCCC2CCN(c3ccc(C)nn3)CC2)cc1	EC50	107E (ICAM-1 receptor group 73)	neutral red	KB	0.018 µM
CCOC(=O)c1ccc(OCCCCC(=O)c2ccc(SC)cc2)cc1	EC50	Serotype 14	cytopathic effect	HeLa	1.7 µM
C#CCOc1cc(OC)ccc1-c1cc(N(CC)CC)no1	EC50	Serotype 70 (group A)	cytopathic effect	HeLa	>40 µM
O=C(CCCCOc1ccc(C2=NCCO2)cc1)c1ccc(Cl)cc1	MIC80	serotype 1A 1B 2 6 14 15 21 22 25 29 30 41 42 45 59 63 67 70 72 86 89	-	-	>280 µM
N=C(N)c1ccc(C2=Cc3ccccc3OC2)cc1	EC25	Serotype 1B	cytopathic effect	HeLa	40 µM
Clc1ccc(C2=Cc3ccccc3OC2)cc1	EC50	Serotype 1B	cytopathic effect	M-HELA	1.65 µM
N=C(N)CCNC(=O)C1CCC(N)=N1	MIC	Serotype 2	-	-	1.5 µg/mL
CSc1nsc(-c2ccc(OCCOc3ccc([N+](=O)[O-])cc3)cc2)c1C#N	EC50	Serotype 63 (group B)	cytopathic effect	HELA-OHIO	>2 µM
Cc1cc(CCCOc2c(C)cc(-c3nnn(C)n3)cc2C)on1	EC50	Serotype 3	plaque count	-	0.576 µg/mL
Cc1ccc(Cn2cnc3c(N(C)C)nc(C(F)(F)F)nc32)cc1	EC50	TYPE 4	plaque count	M-HELA	>2.5 µM
COc1ccc(-c2cc(N3CCCC3)no2)c(O)c1	EC50	Serotype 85 (group B)	cytopathic effect	HeLa	>384 µM
CCS(=O)(=O)c1ccc(NCc2ccc(Cl)c(Cl)c2)nc1C#N	EC50	TYPE 2	cytopathic effect	HeLa	0.6 µg/mL
C=CCc1nc(C)n2c(=O)[nH]c(NC(C)=O)nc12	EC50	TYPE 1A	cytopathic effect	WI-38	>200 µg/mL
CCCN=C1CCC(C(=O)NCCC#N)N1	MIC	Serotype 2	-	-	>100 µg/mL
N#Cc1ccc(C2=Cc3cc(C#N)ccc3OC2)cc1	EC50	Serotype 1B	plaque count	HeLa	5.76 µM
CCCn1c2ccccc2c2nnc(SC)nc21	EC50	HGP	plaque count	WI-38	20 µg/mL
CN(C)c1nc(Cl)nc2c1ncn2Cc1ccc(Cl)cc1	EC50	Serotype 15	plaque count	M-HELA	>5 µM
N=C(N)c1ccc(C2=Cc3cc(C(=N)N)ccc3OC2)cc1	EC50	Serotype 1B	cytopathic effect	HeLa	>40 µM
CC(=O)Nc1nc2c(CC(O)CO)ncn2c(=O)[nH]1	EC50	TYPE 9	cytopathic effect	WI-38	>400 µg/mL
CN=C(c1ccccc1)c1ccc2nc(N)n(S(=O)(=O)C(C)C)c2c1	EC50	TYPE 2	cytopathic effect / XTT	HeLa	0.07 µg/mL
Cn1c2ccccc2c2nnc(NCCCO)nc21	EC50	33342	plaque count	WI-38	13 µg/mL
CCn1c(-c2cccc(F)c2)c(C)c(=O)c2cc(C(C)C)ccc21	EC50	TYPE 2/ HGP	cytopathic effect	HELA-OHIO	0.65 µg/mL
Clc1ccc(C2COc3ccccc3C2)cc1	EC50	Serotype 1B	plaque count	M-HELA	0.511 µM
CC(=O)c1ccoc1CCCOc1c(C)cc(-c2noc(C)n2)cc1C	EC50	15 serotype mixtures	cytopathic effect	HeLa	<1.9 µM
CS(=O)(=O)c1cnc2c(c1)CCC(c1ccc(Cl)c(Cl)c1)O2	EC50	Serotype 2	cytopathic effect	HeLa	0.002 µg/mL
CN[C@H]1C[C@@H](n2cnc3c(N)ncnc32)[C@H](O)[C@@H]1O	EC50	TYPE 2	-	HFF	>100 µg/mL
Clc1ccc(C2=Cc3cc(Cl)ccc3OC2)cc1	EC50	Serotype 1B	cytopathic effect	M-HELA	1.45 µM
CCOC(=O)c1ccc(OCCC2CCN(c3ccc(C)nn3)CC2)cc1	EC50	Serotype 63 (group B)	cytopathic effect	HELA-OHIO	0.01 µM
CS(=O)(=O)c1cccnc1Oc1ccc(C(=O)c2ccccc2)cc1	EC50	TYPE 2	cytopathic effect	HeLa	>10 µg/mL
CCN(CC)c1cc(-c2ccc(OC)cc2O)on1	EC50	Serotype 2	cytopathic effect	HeLa	>381 µM
CC(=O)c1cc(CCCOc2c(C)cc(-c3noc(C)n3)cc2C)co1	EC50	Serotype 14	cytopathic effect	HeLa	0.3 µM
CS(=O)(=O)c1ccc(NCc2ccc(Cl)c(Cl)c2)nc1	EC50	TYPE 5	cytopathic effect	HeLa	>10 µg/mL
c1ccc(C2COc3ccccc3C2)cc1	EC50	Serotype 1B	cytopathic effect	M-HELA	1.43 µM

A second listing of 6 rows from above:

SMILES | read-out | strain or isolate | read by | cells | value
Cn1c2ccccc2c2nnc(NCCCO)nc21 | EC50 | 33342 | plaque count | WI-38 | 13 µg/mL
Clc1ccc(C2=Cc3ccccc3OC2)cc1 | EC50 | Serotype 1B | cytopathic effect | M-HELA | 1.65 µM
CCN(CC)c1cc(-c2ccc(OC)cc2O)on1 | EC50 | Serotype 2 | cytopathic effect | HeLa | >381 µM
C#CCOc1cc(OC)ccc1-c1cc(N(CC)CC)no1 | EC50 | Serotype 70 (group A) | cytopathic effect | HeLa | >40 µM
Clc1ccc(C2=Cc3cc(Cl)ccc3OC2)cc1 | EC50 | Serotype 1B | cytopathic effect | M-HELA | 1.45 µM
CSc1nsc(-c2ccc(OCCCc3ccccc3)cc2)c1C#N | EC50 | Serotype 15 (group B) | cytopathic effect | HELA-OHIO | >20 µM

ECn: concentration that inhibits the pathogen or its effect by n%. Neighbouring rows are from separate reports. MIC50, MIC90 and the like: level of inhibition, or share of isolates inhibited.